Anti-infective test results gathered from many reports (values: NIAID ChemDB through PubChem).

Shared fields: cytotoxicity tests; cell line: HepG2; endpoint: CC50

Conditions beyond the fields shown may differ between rows. CCn: concentration that lowers growth or viability of the cells by n%. Blank or dashed fields: not listed here.

{"SMILES": "C[C@@H]1CCC2[C@@H](C)[C@@H](OCCN3CCCCC3)O[C@@H]3OC4(C)CCC1[C@@]23OO4", "method": "ATP / luminescence", "result": ">31.7 µM"}
{"SMILES": "Cc1cccc2c(Nc3ccc(S(N)(=O)=O)cc3)c3ccc([N+](=O)[O-])cc3nc12", "method": "cell count / luminescence", "result": ">24.8 µM"}
{"SMILES": "C[C@@H]1O[C@@H](O[C@@H]2[C@@H](O)[C@H](OCCc3ccc(O)c(O)c3)O[C@H](CO)[C@H]2OC(=O)/C=C/c2ccc(O)c(O)c2)[C@H](O)[C@H](O)[C@H]1O", "method": "MTT", "result": "6.03 µM"}
{"SMILES": "Cc1cn([C@@H]2C[C@@H](N=[N+]=[N-])[C@H](CO)O2)c(=O)[nH]c1=O", "result": ">200 µM"}
{"SMILES": "O=c1oc2c(O)c(O)cc3c(=O)oc4c(O)c(O)cc1c4c23", "method": "ATP", "result": ">26 µM"}
{"SMILES": "CN(C)C(=S)Oc1ccccc1C(=O)Nc1ccccc1", "method": "MTT", "result": ">500 µM"}
{"SMILES": "CC(C)CNCCO[C@H]1O[C@@H]2OC3(C)CCC4[C@H](C)CCC([C@H]1C)[C@]42OO3", "method": "ATP / luminescence", "result": ">16 µM"}
{"SMILES": "Nc1ccn([C@H]2CC[C@@H](CO)O2)c(=O)n1", "result": "7 µM"}
{"SMILES": "C[C@]1(COc2ccc(-n3cc(COc4ccc(OC(F)(F)F)cc4)nn3)cc2)Cn2cc([N+](=O)[O-])nc2O1", "method": "MTT", "result": ">75 µM"}
{"SMILES": "CC(C)C[C@@H]1NC(=O)[C@H](Cc2c[nH]c3ccccc23)NC(=O)[C@@H](CCCCN)NC(=O)[C@H](CO)NC(=O)[C@H](C(C)C)NC(=O)[C@@H](CC(C)C)NC1=O", "method": "MTT", "result": ">30 µM"}
{"SMILES": "O=C(N[C@H](CO)Cc1ccccc1)/C(NC(=O)c1ccc(Cl)cc1Cl)=C(/Br)c1ccccc1", "method": "MTT", "result": ">100 µM"}
{"SMILES": "Nc1nc(N)c2ncn([C@H]3CO[C@@H](CO)O3)c2n1", "result": ">50 µM"}
{"SMILES": "CCN(CC)CC.Nc1ncnc2c1ncn2[C@@H]1O[C@H](CNS(=O)(=O)NC(=O)c2ccccc2O)CC1F", "method": "MTT / absorbance", "result": ">200 µM"}
{"SMILES": "CN(C(=O)Oc1ccc(Cl)cc1C(=O)Nc1ccc(Cl)cc1)c1ccccc1", "method": "MTT", "result": "289 µM"}
{"SMILES": "CCSc1nc(NC)c2ccc(F)c(F)c2n1", "method": "fluorescence", "result": "39 µg/mL"}
{"SMILES": "O=C(N/N=C/c1ccc(C2C3CC4CC(C3)CC2C4)cc1)c1ccncc1", "method": "luminescence", "result": "9.7 µg/mL"}
{"SMILES": "O=C1OCc2c1cc1c(Br)cc3c(c1c2-c1cc2c(cc1Br)OCO2)OCO3", "result": "20 µM"}
{"SMILES": "COc1ccc2nc(C)cc(OCC(=O)Nc3cc(OC)c(Cl)cc3OC)c2c1", "method": "luminescence", "result": ">100 µM"}
{"SMILES": "Cc1cn([C@@H]2C=C[C@H](CO)O2)c(=O)[nH]c1=O", "result": ">200 µM"}
{"SMILES": "O=C(CO)CCC(=O)OCCc1ccc2c(c1)OCO2", "method": "MTT", "result": "5.56 µM"}
{"SMILES": "C=C(C)[C@@H]1CCC2[C@]3(CC[C@]4(C)[C@@H]([C@H](C)CC/C=C(/C)C(=O)O)CC[C@@]24C)C[C@]13CCC(=O)O", "method": "MTT", "result": "15.79 µM"}
{"SMILES": "CO[C@H]1/C=C/O[C@@]2(C)Oc3c(C)c(O)c4c(O)c(c(/C=N/N5CCN(C)CC5)c(O)c4c3C2=O)NC(=O)/C(C)=C\\C=C\\[C@H](C)[C@H](O)[C@@H](C)[C@@H](O)[C@@H](C)[C@H](OC(C)=O)[C@@H]1C", "method": "MTT", "result": ">30 µM"}
{"SMILES": "O=C(N/N=C/C12CC3CC(CC(C3)C1)C2)c1ccncc1", "method": "luminescence", "result": "100 µg/mL"}
{"SMILES": "O=C1OCc2cc3ccc4c(c3c(-c3ccc5c(c3)OCO5)c21)OCO4", "result": "12 µM"}
{"SMILES": "CC(/C=C/C=C(\\C)CC(=O)O)=C\\C=C\\C=C(C)\\C=C\\C(C)=C(/C)C(=O)O", "method": "ATP", "result": ">26 µM"}
{"SMILES": "O=C(N/N=C/C1C2CC3CC(C2)CC1C3)c1ccncc1", "method": "luminescence", "result": ">100 µg/mL"}
{"SMILES": "Cc1[nH]n(-c2ccccc2)c(=O)c1Sc1ccc(Cl)cc1Cl", "method": "fluorescence", "result": ">50 µM"}
{"SMILES": "c1ccc2cc(OCCCCCN3CCCCC3)ccc2c1", "method": "cell count / luminescence", "result": "8.43 µM"}
{"SMILES": "CC[C@H](CC[C@@H](C)[C@H]1CCC2C3CC=C4C[C@@H](O)CC[C@]4(C)[C@@]3(C)CC[C@@]21C)C(C)C", "method": "ATP", "result": ">26 µM"}
{"SMILES": "C=C(C)C1CCC2[C@]3(CC[C@]4(C)/C(=C(\\C)CC/C=C(/C)C(=O)O)CC[C@@]24C)C[C@]13CCC(=O)O", "method": "MTT", "result": "20.44 µM"}
{"SMILES": "CN(C)C(=S)Oc1ccc(Cl)cc1C(=O)Nc1ccc(F)cc1", "method": "MTT", "result": "116.8 µM"}
{"SMILES": "CC/C=C\\C[C@@H]1[C@@H](CC(=O)OC)CC[C@H]1O", "method": "ATP", "result": ">26 µM"}
{"SMILES": "Cc1cn([C@@H]2C[C@@H](F)[C@H](CO)O2)c(=O)[nH]c1=O", "result": ">200 µM"}
{"SMILES": "CC(C)=CCC/C(C)=C/CC/C(C)=C/CC[C@@]1(C)CCc2cc(O)cc(C)c2O1", "method": "ATP", "result": ">26 µM"}
{"SMILES": "COc1nc(OC(F)(F)F)c(NC(=O)C2CCC3C4CN(C(=O)OC(C)(C)C)C5=CC(=O)CC[C@]5(C)C4CC[C@]23C)cc1Br", "method": "ATP / luminescence", "result": ">30 µM"}
{"SMILES": "OCCc1ccc(O)c(O[C@@H]2O[C@H](CO)[C@@H](O)[C@H](O)[C@H]2O)c1", "method": "MTT", "result": "8.63 µM"}
{"SMILES": "CC[C@@]1(O)C(=O)OCc2c1cc1n(c2=O)Cc2cc3ccccc3nc2-1", "method": "MTT", "result": "0.0327 µg/mL"}
{"SMILES": "O=C(Nc1ccc(F)cc1)c1cc(Cl)ccc1OC(=O)N(c1ccccc1)c1ccccc1", "method": "MTT", "result": ">100 µM"}
{"SMILES": "CC(C)C[C@@H]1NC(=O)[C@H](Cc2c[nH]c3ccccc23)NC(=O)[C@@H](CCCCN)NC(=O)CNC(=O)[C@H](C(C)C)NC(=O)[C@@H](CC(C)C)NC1=O", "method": "MTT", "result": ">30 µM"}
{"SMILES": "Nc1nc(N)c2ncn([C@H]3CO[C@@H](CO)O3)c2n1", "result": "≥500 µM"}
{"SMILES": "O=C1OC(=O)c2c1c(Br)c1cc3c(cc1c2-c1cc2c(cc1Br)OCO2)OCO3", "result": "6 µM"}
{"SMILES": "C=C1C(C(C)C2CC=C(C)C(=O)O2)=CC[C@]2(C)C1C[C@]1(O)C=C3C=CC(=O)OC(C)(C)C3CCC21", "method": "MTT", "result": "1.22 µM"}
{"SMILES": "CC(=O)c1cc(O)c(O)c(=O)cc1C", "method": "MTS", "setting": "3 d", "result": "23.5 µM"}
{"SMILES": "OCCc1ccc(O[C@@H]2O[C@H](CO)[C@@H](O)[C@H](O)[C@H]2O)c(O)c1", "method": "MTT", "result": "11.09 µM"}
{"SMILES": "O=C(N/N=C/C12CC3CC(C1)CC(c1ccccc1)(C3)C2)c1ccncc1", "method": "luminescence", "result": "25 µg/mL"}
{"SMILES": "CN(C(=O)Oc1ccccc1C(=O)Nc1ccccc1)c1ccccc1", "method": "MTT", "result": "279.9 µM"}
{"SMILES": "Cc1ccc2c3c1C(CN)OB3OCCO2", "method": "resazurin", "result": "36.4 µM"}
{"SMILES": "CN(C)C(=O)Oc1ccc(Cl)cc1C(=O)Nc1ccc(Cl)cc1", "method": "MTT", "result": "188.7 µM"}
{"SMILES": "Nc1ncnc2c1ncn2CCOCP(=O)(O)O", "method": "MTT", "result": "1100 µM"}
{"SMILES": "Cc1cn([C@H]2C=C[C@@H](CO)O2)c(=O)[nH]c1=O", "method": "neutral red", "result": "290 µM"}
{"SMILES": "Cc1cn([C@H]2C[C@H](F)[C@@H](CO)O2)c(=O)[nH]c1=O", "result": ">100 µM"}
{"SMILES": "C[C@H]1C(OC(=O)c2ccccc2)O[C@@H]2OC3(C)CCC4[C@H](C)CCC1[C@]42OO3", "method": "ATP / luminescence", "result": ">26 µM"}
{"SMILES": "OC1C(O)C(O)C(O)C(O)C1O", "method": "ATP", "result": ">26 µM"}
{"SMILES": "CC1CCN(CCCCOc2ccc(C(=O)c3ccccc3)cc2)CC1", "method": "cell count / luminescence", "result": ">26.8 µM"}
{"SMILES": "C=C1C(C(C)C2CC=C(C)C(=O)O2)=CC[C@]2(C)C1C[C@]1(O)C=C3C=CC(=O)OC(C)(C)C3[C@H](O)CC21", "method": "MTT", "result": "1.75 µM"}
{"SMILES": "Cc1cn([C@H]2C=C[C@@H](CO)O2)c(=O)[nH]c1=O", "result": ">200 µM"}

Repeating the final 8 entries:

| SMILES | method | setting | result |
|---|---|---|---|
| Nc1ncnc2c1ncn2CCOCP(=O)(O)O | MTT | - | 1100 µM |
| Cc1cn([C@H]2C=C[C@@H](CO)O2)c(=O)[nH]c1=O | neutral red | - | 290 µM |
| Cc1cn([C@H]2C[C@H](F)[C@@H](CO)O2)c(=O)[nH]c1=O | - | - | >100 µM |
| C[C@H]1C(OC(=O)c2ccccc2)O[C@@H]2OC3(C)CCC4[C@H](C)CCC1[C@]42OO3 | ATP / luminescence | - | >26 µM |
| OC1C(O)C(O)C(O)C(O)C1O | ATP | - | >26 µM |
| CC1CCN(CCCCOc2ccc(C(=O)c3ccccc3)cc2)CC1 | cell count / luminescence | - | >26.8 µM |
| C=C1C(C(C)C2CC=C(C)C(=O)O2)=CC[C@]2(C)C1C[C@]1(O)C=C3C=CC(=O)OC(C)(C)C3[C@H](O)CC21 | MTT | - | 1.75 µM |
| Cc1cn([C@H]2C=C[C@@H](CO)O2)c(=O)[nH]c1=O | - | - | >200 µM |